Results on 15 molecules are retold here after BindingDB's records for 9406595.

pIC50: −log10 of the molar value.

For this experiment, the target named is Neuraminidase (Influenza A virus (strain A/Tern/Australia/G70C/1975 H11N9), UniProt P03472). Briefly: ASSAY_NAME: Neuraminidase Inhibition Assay DESCRIPTION: A standard fluorimetric assay was used to measure influenza virus neuraminidase activity. The substrate 2 -(4-methylumbelliferyl)-alpha-D-acetylneuraminic acid is cleaved by neuraminidase to yield a fluorescent product that can be quantified. Fluorescence was read using an Aminco-Bowman fluorescence spectrophotometer (excitation, 360 nm; emis. As to conditions: pH 6.5.

As for `NC(N)=Nc1cc(CN=O)cc(C(=O)O)c1`, the pIC50 is 3.30.
In the case of `NC(N)=Nc1cccc(C(=O)O)c1` it was 2.30; in that of `N=C(N)Nc1cc(N)cc(C(=O)O)c1`, 2.70; in that of `CC(=O)Nc1ccc(C(=O)O)cc1CC[N+](=O)[O-]`, 2.60.
Next, `CNC(=O)c1ccc(C(=O)O)cc1NC(=N)N`: 5.30; `C[S+]([O-])Cc1ccc(C(=O)O)cc1N=C(N)N` (stereo not given): 3.85; `NC(N)=Nc1cc(N=C(N)N)cc(C(=O)O)c1`: 2.82.
Take `N#CNc1cccc(C(=O)O)c1`: the pIC50 was 2.40.
Molecule `CC(=O)Nc1ccc(C(=O)O)cc1CN=O` gave a pIC50 of 2.26.
On to `O=C(O)c1ccc(NC(=O)c2ccccc2)cc1`, for which the pIC50 was 2.82.
The molecule `CC(C)C(=O)Nc1ccc(C(=O)O)cc1N=C(N)N` had a negative logarithm of the IC50 (pIC50) of 3.00. The pIC50 values of the last two molecules are within 0.2 log units of each other.
Take `CS(=O)(=O)Nc1ccc(C(=O)O)cc1NC(=N)N`: the pIC50 is 4.00.
Next, `NS(=O)(=O)c1ccc(C(=O)O)cc1`: 2.60; `NC(N)=Nc1cc(C(=O)O)ccc1S(N)(=O)=O`: 5.05.
Molecule `CS(=O)(=O)Cc1ccc(C(=O)O)cc1NC(=N)N` gave a pIC50 of 3.52.
